In US6440980B1, “Synergistic inhibition of viral replication by long-chain hydrocarbons and nucleoside analogs” (Avanir Pharmaceuticals, priority 1996, dated 2002):

Tested on: Vero cells
Assay: Cell-associated n-[1-14C]docosanol
Type: cell-based, African Green monkey
Conditions: 24 hours

CCCCCCCCCCCCCCCCCCCCCCO [n-docosanol]
cell-associated n-docosanol bound (1:1 ratio of surfactant to n-docosanol): 3.1×10^−6 μg/cell | cell-associated n-docosanol bound (4:1 ratio of surfactant to n-docosanol): 7.8×10^−6 μg/cell
